{
  "source": "patent US20230407373A1",
  "about": "(priority 2020, published 2023)",
  "molecules": {"B1": {"name": "IGF2BP2 (protein, UniProt Q9Y6M1 1-599, looked up)", "Insulin-like growth factor 2 …": "MMNKLYIGNLSPAVTADDLRQLFGDRKLPLAGQVLLKSGYAFVDYPDQNWAIRAIETLSGKVELHGKIMEVDYSVSKKLRSRKIQIRNIPPHLQWEVLDGLLAQYGTVENVEQVNTDTETAVVNVTYATREEAKIAMEKLSGHQFENYSFKISYIPDEEVSSPSPPQRAQRGDHSSREQGHAPGGTSQARQIDFPLRILVPTQFVGAIIGKEGLTIKNITKQTQSRVDIHRKENSGAAEKPVTIHATPEGTSEACRMILEIMQKEADETKLAEEIPLKILAHNGLVGRLIGKEGRNLKKIEHETGTKITISSLQDLSIYNPERTITVKGTVEACASAEIEIMKKLREAFENDMLAVNQQANLIPGLNLSALGIFSTGLSVLSPPAGPRGAPPAAPYHPFTTHSGYFSSLYPHHQFGPFPHHHSYPEQEIVNLFIPTQAVGAIIGKKGAHIKQLARFAGASIKIAPAEGPDVSERMVIITGPPEAQFKAQGRIFGKLKEENFFNPKEEVKLEAHIRVPSSTAGRVIGKGGKTVNELQNLTSAEVIVPRDQTPDENEEVIVRIIGHFFASQTAQRKIREIVQQVKQQEQKYPQGVASQRSK"}, "B2": {"name": "PUM2 (protein, UniProt Q8TB72 1-1066, looked up)", "Pumilio homolog 2": "MNHDFQALALESRGMGELLPTKKFWEPDDSTKDGQKGIFLGDDEWRETAWGASHHSMSQPIMVQRRSGQGFHGNSEVNAILSPRSESGGLGVSMVEYVLSSSPADKLDSRFRKGNFGTRDAETDGPEKGDQKGKASPFEEDQNRDLKQGDDDDSKINGRGLPNGMDADCKDFNRTPGSRQASPTEVVERLGPNTNPSEGLGPLPNPTANKPLVEEFSNPETQNLDAMEQVGLESLQFDYPGNQVPMDSSGATVGLFDYNSQQQLFQRTNALTVQQLTAAQQQQYALAAAQQPHIAGVFSAGLAPAAFVPNPYIISAAPPGTDPYTAAGLAAAATLAGPAVVPPQYYGVPWGVYPANLFQQQAAAAANNTASQQAASQAQPGQQQVLRAGAGQRPLTPNQGQQGQQAESLAAAAAANPTLAFGQGLATGMPGYQVLAPTAYYDQTGALVVGPGARTGLGAPVRLMAPTPVLISSAAAQAAAAAAAGGTASSLTGSTNGLFRPIGTQPPQQQQQQPSTNLQSNSFYGSSSLTNSSQSSSLFSHGPGQPGSTSLGFGSGNSLGAAIGSALSGFGSSVGSSASSSATRRESLSTSSDLYKRSSSSLAPIGQPFYNSLGFSSSPSPIGMPLPSQTPGHSLTPPPSLSSHGSSSSLHLGGLTNGSGRYISAAPGAEAKYRSASSTSSLFSSSSQLFPPSRLRYNRSDIMPSGRSRLLEDFRNNRFPNLQLRDLIGHIVEFSQDQHGSRFIQQKLERATPAERQMVFNEILQAAYQLMTDVFGNYVIQKFFEFGSLDQKLALATRIRGHVLPLALQMYGCRVIQKALESISSDQQVISEMVKELDGHVLKCVKDQNGNHVVQKCIECVQPQSLQFIIDAFKGQVFVLSTHPYGCRVIQRILEHCTAEQTLPILEELHQHTEQLVQDQYGNYVIQHVLEHGRPEDKSKIVSEIRGKVLALSQHKFASNVVEKCVTHASRAERALLIDEVCCQNDGPHSALYTMMKDQYANYVVQKMIDMAEPAQRKIIMHKIRPHITTLRKYTYGKHILAKLEKYYLKNSPDLGPIGGPPNGML"}, "B3": {"name": "IGF2BP3: host protein, UniProt O00425 (protein, UniProt O00425 1-579, looked up)", "Insulin-like growth factor 2 …": "MNKLYIGNLSENAAPSDLESIFKDAKIPVSGPFLVKTGYAFVDCPDESWALKAIEALSGKIELHGKPIEVEHSVPKRQRIRKLQIRNIPPHLQWEVLDSLLVQYGVVESCEQVNTDSETAVVNVTYSSKDQARQALDKLNGFQLENFTLKVAYIPDEMAAQQNPLQQPRGRRGLGQRGSSRQGSPGSVSKQKPCDLPLRLLVPTQFVGAIIGKEGATIRNITKQTQSKIDVHRKENAGAAEKSITILSTPEGTSAACKSILEIMHKEAQDIKFTEEIPLKILAHNNFVGRLIGKEGRNLKKIEQDTDTKITISPLQELTLYNPERTITVKGNVETCAKAEEEIMKKIRESYENDIASMNLQAHLIPGLNLNALGLFPPTSGMPPPTSGPPSAMTPPYPQFEQSETETVHLFIPALSVGAIIGKQGQHIKQLSRFAGASIKIAPAEAPDAKVRMVIITGPPEAQFKAQGRIYGKIKEENFVSPKEEVKLEAHIRVPSFAAGRVIGKGGKTVNELQNLSSAEVVVPRDQTPDENDQVVVKITGHFYACQVAQRKIQEILTQVKQHQQQKALQSGPPQSRRK"}, "B4": {"name": "IGF28P3 (protein, UniProt O00425 1-579, looked up)", "Insulin-like growth factor 2 …": "B3 Insulin-like growth factor 2 …"}, "B5": {"name": "QKI (protein, UniProt Q96PU8 1-341, looked up)", "KH domain-containing …": "MVGEMETKEKPKPTPDYLMQLMNDKKLMSSLPNFCGIFNHLERLLDEEISRVRKDMYNDTLNGSTEKRSAELPDAVGPIVQLQEKLYVPVKEYPDFNFVGRILGPRGLTAKQLEAETGCKIMVRGKGSMRDKKKEEQNRGKPNWEHLNEDLHVLITVEDAQNRAEIKLKRAVEEVKKLLVPAAEGEDSLKKMQLMELAILNGTYRDANIKSPALAFSLAATAQAAPRIITGPAPVLPPAALRTPTPAGPTIMPLIRQIQTAVMPNGTPHPTAAIVPPGPEAGLIYTPYEYPYTLAPATSILEYPIEPSGVLGAVATKVRRHDMRVHPYQRIVTADRAATGN"}},
  "key": {"[1]": {"tested_on": "SARS-CoV-2 gRNA", "type": "binding", "details": "for target (unweighted spectral count of the protein in the RNP capture): LC-MS/MS, Probe I sample (first 199 lines of Table 2)"}, "[2]": {"tested_on": "SARS-CoV-2 gRNA and sgRNAs", "type": "binding", "details": "for target (unweighted spectral count in RNP capture): Probe II capture, LC-MS/MS LFQ; for background (unweighted spectral count in control): no-probe control pull-down, used as background for Probe II"}},
  "data": [
    {"molecule": "B1", "values": [
      {"measurement": "target (unweighted spectral count of the protein in the RNP capture)", "setting": "[1]", "result": 32},
      {"measurement": "target (unweighted spectral count in RNP capture)", "setting": "[2]; […]", "result": 81},
      {"measurement": "background (unweighted spectral count in control)", "setting": "[2]", "result": 1}
    ]},
    {"molecule": "B2", "values": [
      {"measurement": "target (unweighted spectral count in RNP capture)", "setting": "[2]; […]", "result": 43},
      {"measurement": "background (unweighted spectral count in control)", "setting": "[2]", "result": 1}
    ]},
    {"molecule": "B3", "values": [
      {"measurement": "enrichment in SARS-CoV-2 Probe I RNP capture", "setting": "[1]", "result": "found in the SARS-CoV-2 experiments"},
      {"measurement": "enrichment in SARS-CoV-2 Probe II RNP capture", "setting": "[2]", "result": "found in the SARS-CoV-2 experiments"},
      {"measurement": "background (unweighted spectral count in control)", "setting": "[2]", "result": 1}
    ]},
    {"molecule": "B4", "values": [
      {"measurement": "target (unweighted spectral count of the protein in the RNP capture)", "setting": "[1]", "result": 8}
    ]},
    {"molecule": "B5", "values": [
      {"measurement": "target (unweighted spectral count of the protein in the RNP capture)", "setting": "[1]", "result": 6},
      {"measurement": "target (unweighted spectral count of the protein in the RNP capture experiment)", "setting": "[2]; […], LC-MS/MS label-free quantification, probe pool not given", "result": 6},
      {"measurement": "back-ground (unweighted spectral count of the protein in the control experiment)", "setting": "[2]; protein background of the control (e.g. no-probe) experiment, […]", "result": 1}
    ]}
  ]
}
